Results of unrelated studies side by side (data: NIAID ChemDB).

Common to all: tests in culture; agent: HIV-1; read-out: EC50

An empty or dashed field is not shown. ECn is the concentration giving n% inhibition of infection, replication or growth. Lines come from different laboratories, so protocols vary.

compound,strain,cell line,changes,method,value
CC(C)C1=C2[C@H]3CC[C@@H]4[C@@]5(C)CC[C@H](OC(=O)[C@H]6C[C@@H](C(=O)O)C6(C)C)C(C)(C)[C@@H]5CC[C@@]4(C)[C@]3(C)CC[C@@]2(CC(=O)NC(F)(CN)CNC(=O)c2ccc(Cl)cc2)CC1=O,92HT599,MT-2,,p24 / ELISA,<1 µM
CCOC(=O)CNc1nc(NC(=O)Nc2ccccc2Cl)nc(Oc2cc(=O)oc3ccccc23)n1,IIIB,MT-4,,MTT,>78.8 µg/mL
CCOC(=O)c1cccn1S(=O)(=O)c1cc(Cl)ccc1NC(=O)CN1CCN(C(C)=O)CC1,IIIB,MT-4,,cytopathic effect / XTT,16.5 µM
Nc1ncnc2c1ncn2[C@H]1C=C[C@@H](OCP(=O)(O)O)O1,WT,MT-2,,cytopathic effect,2.1 µM
CC(C)N1C[C@H](C)N2C(=C(O)C3C(=O)N4Cc5ccc(F)cc5OCCCCCS(=O)(=O)N(C)C(=N4)C32)C1=O,LAII(IIIB),MT-4,,,2.29 µM
CCOC(=O)CNc1nc(NC(=O)Nc2ccc(Cl)cc2)nc(Oc2cc(=O)oc3ccccc23)n1,IIIB,MT-4,,MTT,>125 µg/mL
CCOC(=O)c1cccn1S(=O)(=O)c1cc(Cl)ccc1NC=O,IIIB,MT-4,,cytopathic effect / XTT,1 µM
CCN1C[C@H](C)N2C(=C(O)C3C(=O)N4Cc5ccc(F)cc5OCCCC[C@H](C)S(=O)(=O)N(C)C(=N4)C32)C1=O,LAII(IIIB),MT-4,,,2.24 µM
CCCc1c(Cc2ccccc2)n(COC/C=C/c2ccccc2)c(=O)[nH]c1=O,IIIB,MT-4,,cytopathic effect / MTT,0.01 µM
C=C(C)[C@@H]1CC[C@]2(C(=O)NCCCCCCCC(=O)N[C@@H](CC(C)C)[C@@H](O)CC(=O)O)CC[C@]3(C)[C@H](CC[C@@H]4[C@@]5(C)CC[C@H](O)C(C)(C)[C@@H]5CC[C@]43C)[C@@H]12,LAI-R(GP41-I84S),HeLa P4 + HeLa,I84S,p24,>10 µM
CCOC(=O)CNc1nc(NC(=O)Nc2ccc(OCC)cc2)nc(Oc2cc(=O)oc3ccccc23)n1,IIIB,MT-4,,MTT,>125 µg/mL
C=C(C)[C@@H]1CC[C@]2(NCCN3CCS(=O)(=O)CC3)CC[C@]3(C)[C@H](CC[C@@H]4[C@@]5(C)CC[C@H](OC(=O)[C@H]6C[C@@H](C(=O)O)C6(C)C)C(C)(C)[C@@H]5CC[C@]43C)[C@@H]12,92HT599,MT-2,,p24 / ELISA,≤0.01 µM
C[Si](C)(CCCSc1ncccn1)O[Si](C)(C)CCCSc1ncccn1,IIIB,MT-2,,MTT,3 µM
O=c1[nH]c(=O)n([C@@H]2C[C@@H](F)[C@H](CO)O2)cc1Cl,IIIB,CEM + CEM/O,,,>250 µM
CCOC(=O)c1cccn1S(=O)(=O)c1cc(Cl)ccc1NC(=O)CS(C)(=O)=O,IIIB,MT-4,,cytopathic effect / XTT,20 µM
Cc1cccc(Nc2ccccc2C(=O)Nc2ccc(-c3cc(-c4ccc(N(C)C)cc4)nc(=S)[nH]3)cc2)c1C,IIIB,MT-4,,MTT / absorbance,>7.02 µM
COc1ccc2[nH]c(C(=O)N3CCN(c4ncccc4NC(C)C)CC3)cc2c1,IIIB,H9,,p24,0.06 µM
CCOC(=O)c1cccn1S(=O)(=O)c1cccc(NC(N)=O)c1,IIIB,MT-4,,cytopathic effect / XTT,>200 µM
Cc1ccc(NC(=O)NCCSCc2ccc(CNC(C)C)o2)cc1Cl,,U1,,cytopathic effect,<100 µM
CCOC(=O)c1cccn1S(=O)(=O)c1cc(Cl)ccc1NC(=O)CSC,IIIB,MT-4,,cytopathic effect / XTT,0.5 µM
O=C(NCCc1ccccc1)Nc1nc2ccc(F)cc2s1,,MT-4,,cytopathic effect / XTT,<1 µg/mL
CCN1C[C@H](C)N2C(=C(O)C3C(=O)N4Cc5cc(Cl)c(F)cc5OCCCCCN(C)C(=O)C(=N4)C32)C1=O,LAII(IIIB),MT-4,,,11.89 µM
C[Si](O)(O[Si](C)(CCCn1cnc2c(N)ncnc21)c1ccccc1)c1ccccc1,IIIB,MT-2,,RT activity,14 µM
CC[C@H](C)N1C[C@H](COCCOC)n2cc(-c3nnc(Cc4ccc(F)cc4F)s3)c(=O)c(O)c2C1=O,IIIB,CEM,,XTT,0.016 µM
CC1([C@@H]2CC[C@]3(NCCN4CCN(S(C)(=O)=O)CC4)CC[C@]4(C)[C@H](CC[C@@H]5[C@@]6(C)CC[C@H](OC(=O)[C@H]7C[C@@H](C(=O)O)C7(C)C)C(C)(C)[C@@H]6CC[C@]54C)[C@@H]23)CC1,92HT599,MT-2,,p24 / ELISA,≤0.01 µM
CC(C)Nc1cccnc1N1CCN(C(=O)c2cc3cc(F)ccc3[nH]2)CC1,IIIB,H9,,p24,0.05 µM
CCCc1c(Cc2cc(C)cc(C)c2)n(COC/C(C)=C/c2ccccc2)c(=O)[nH]c1=O,NNRTI-resistant (RT Y181C) N119,MT-4,RT-Y181C,cytopathic effect / MTT,21 µM
CCOCn1c(Cc2ccc(Cl)cc2)c(CC)c(=O)[nH]c1=O,IIIB,MT-4,,,44 µM
O=C1NC(=S)N[C@@H]1Cc1ccc(O)cc1,,MT-4,,cytopathic effect / XTT,>10 µg/mL
CCc1c(Cc2cc(C)cc(C)c2)n(COC/C=C/c2ccccc2)c(=O)[nH]c1=O,NNRTI-resistant (RT Y181C) N119,MT-4,RT-Y181C,cytopathic effect / MTT,4 µM
CCCCN1C(=O)[C@@H](Cc2ccccc2)NC1=S,,MT-4,,RT activity,<100 µg/mL
COc1ccc(CCNc2nc(NC(=S)Nc3ccccc3)nc(Oc3cc(=O)oc4ccccc34)n2)cc1OC,IIIB,MT-4,,MTT,>15.45 µg/mL
CC(C)(C)C(=O)OCOP(=O)(OCOC(=O)C(C)(C)C)OC[C@@H]1CC[C@H](n2ccc(=O)[nH]c2=O)O1,,CEM + CEM TK-,,MTT,2.5 µM
Nc1nc(=O)n([C@@H]2CC[C@H](CO)O2)cc1Cl,IIIB,CEM + CEM/O,,,>250 µM
CC(C)S(=O)(=O)N1CCN(CCN[C@]23CC[C@@H](C4(C)CC4)[C@@H]2[C@H]2CC[C@@H]4[C@@]5(C)CC[C@H](OC(=O)[C@H]6C[C@@H](C(=O)O)C6(C)C)C(C)(C)[C@@H]5CC[C@@]4(C)[C@]2(C)CC3)CC1,92HT599,MT-2,,p24 / ELISA,≤0.01 µM
COc1ccc(CCNc2nc(NC(=S)Nc3ccccc3C)nc(Oc3cc(=O)oc4ccccc34)n2)cc1OC,IIIB,MT-4,,MTT,>20.03 µg/mL
O=C(NCCc1ccccc1)Nc1nc(C(F)(F)F)cs1,,MT-4,,cytopathic effect / XTT,<1 µg/mL
CCCc1c(Cc2ccccc2)n(COC/C(C)=C/c2ccccc2)c(=O)[nH]c1=O,NNRTI-resistant (RT Y181C) N119,MT-4,RT-Y181C,cytopathic effect / MTT,>100 µM
CC(C)C1=C2[C@H]3CC[C@@H]4[C@@]5(C)CC[C@H](OC(=O)[C@H]6C[C@@H](C(=O)O)C6(C)C)C(C)(C)[C@@H]5CC[C@@]4(C)[C@]3(C)CC[C@@]2(CC(=O)NCc2ccc(N3CCN(C)CC3)cc2)CC1=O,92HT599,MT-2,,p24 / ELISA,<1 µM
O=c1[nH]c(=O)n([C@H]2C[C@H](F)[C@@H](CO)O2)cc1Cl,IIIB,CEM + CEM/O,,,0.5 µM
CCC(=O)c1ccc(F)c([C@H]2C[C@H]2NC(=O)Nc2ccc(Br)cn2)c1O,IIIB,MT-4,RT-Y181C,cytopathic effect / XTT,0.1 µM
CCOC(=O)c1cccn1S(=O)(=O)c1cc(Cl)ccc1NC(=O)COC,IIIB,MT-4,,cytopathic effect / XTT,0.4 µM
CN1C(=O)[C@@H](Cc2ccccc2)NC1=S,,MT-4,,cytopathic effect / XTT,>10 µg/mL
Cc1cn([C@H]2C[C@H](N=[N+]=[N-])[C@@H](CO)O2)c(=O)[nH]c1=O,IIIB,C8166,,syncytia,0.00534 µg/mL
CCOC(=O)CNc1nc(Nc2ccc(OC)cc2)nc(Oc2cc(=O)oc3ccccc23)n1,IIIB,MT-4,,MTT,>58.6 µg/mL
S=C(NCCc1ccccc1)N1CCCc2ccccc21,,MT-4,,cytopathic effect / XTT,>10 µg/mL
CC1([C@@H]2CC[C@]3(NCCN4CCN(S(=O)(=O)Cc5ccccc5)CC4)CC[C@]4(C)[C@H](CC[C@@H]5[C@@]6(C)CC[C@H](OC(=O)[C@H]7C[C@@H](C(=O)O)C7(C)C)C(C)(C)[C@@H]6CC[C@]54C)[C@@H]23)CC1,92HT599,MT-2,,p24 / ELISA,≤0.01 µM
CC(C)C1=C2[C@H]3CC[C@@H]4[C@@]5(C)CC[C@H](OC(=O)[C@H]6C[C@@H](C(=O)O)C6(C)C)C(C)(C)[C@@H]5CC[C@@]4(C)[C@]3(C)CC[C@@]2(CC(=O)NCC(C)(CCCCN)NC(=O)c2ccc(Cl)cc2)CC1=O,92HT599,MT-2,,p24 / ELISA,<1 µM
Cc1cccc(Nc2ccccc2C(=O)Nc2ccc(C(=O)/C=C/c3ccccc3)cc2)c1C,IIIB,MT-4,,MTT / absorbance,>125 µM
COc1cccc2c1N(C(=O)OC(C)C)C(CSC)C(=S)N2,IIIB,MT-4,RT-Y181C,cytopathic effect / XTT,0.07 µM
CC1([C@@H]2CC[C@]3(NCCN4CCC(F)(F)CC4)CC[C@]4(C)[C@H](CC[C@@H]5[C@@]6(C)CC[C@H](OC(=O)[C@H]7C[C@@H](C(=O)O)C7(C)C)C(C)(C)[C@@H]6CC[C@]54C)[C@@H]23)CC1,92HT599,MT-2,,p24 / ELISA,>0.01 µM
CC(C)CN(C[C@@H](O)[C@H](Cc1ccccc1)NC(=O)O[C@H]1CO[C@H]2OCC[C@H]21)S(=O)(=O)c1ccc2nc(NC3CCN(C4CCCC4)CC3)sc2c1,LAI,PBMC,,p24 / ELISA,0.0022 µM
CCOC(=O)CNc1nc(Nc2ccc3ccccc3c2)nc(Oc2cc(=O)oc3ccccc23)n1,IIIB,MT-4,,MTT,>46.53 µg/mL
CCOC(=O)c1cccn1S(=O)(=O)c1cc(Cl)ccc1NC(=O)CN1CCCC1,IIIB,MT-4,,cytopathic effect / XTT,1.9 µM
CCN1C[C@H](C)N2C(=C(O)C3C(=O)N4Cc5ccc(F)cc5OCCCCCS(=O)(=O)N(CC)C(=N4)C32)C1=O,LAII(IIIB),MT-4,,,0.5 µM
CC(C)C1=C2[C@H]3CC[C@@H]4[C@@]5(C)CC[C@H](OC(=O)[C@H]6C[C@@H](C(=O)O)C6(C)C)C(C)(C)[C@@H]5CC[C@@]4(C)[C@]3(C)CC[C@@]2([C@@H](O)CNC(=O)C(CCCN)NC(=O)c2ccc(Cl)cc2)CC1=O,92HT599,MT-2,,p24 / ELISA,<1 µM
CC1([C@@H]2CC[C@]3(NCCN4CCOCC4)CC[C@]4(C)[C@H](CC[C@@H]5[C@@]6(C)CC[C@H](OC(=O)[C@H]7C[C@@H](C(=O)O)C7(C)C)C(C)(C)[C@@H]6CC[C@]54C)[C@@H]23)CC1,92HT599,MT-2,,p24 / ELISA,≤0.01 µM
Cc1cccc(Nc2ccccc2C(=O)Nc2ccc(C(=O)/C=C/c3ccc(N(C)C)cc3)cc2)c1C,IIIB,MT-4,,MTT / absorbance,>2.06 µM
COc1ccccc1NC(=O)Nc1nc(NCCc2ccc(OC)c(OC)c2)nc(Oc2cc(=O)oc3ccccc23)n1,IIIB,MT-4,,MTT,>25.48 µg/mL
C[Si](C)(CCCn1ccnc1)O[Si](C)(C)CCCn1ccnc1,IIIB,MT-2,,MTT,11 µM
CC(C)C1=C2[C@H]3CC[C@@H]4[C@@]5(C)CC[C@H](OC(=O)[C@H]6C[C@@H](C(=O)O)C6(C)C)C(C)(C)[C@@H]5CC[C@@]4(C)[C@]3(C)CC[C@@]2(CCNC(=O)c2ccc(CN3CCN(C)CC3)cc2)CC1=O,92HT599,MT-2,,p24 / ELISA,<1 µM
CCCc1c(Cc2cc(C)cc(C)c2)n(COC2C=CCCC2)c(=O)[nH]c1=O,IIIB,MT-4,,cytopathic effect / MTT,0.03 µM
CC(C)C1=C2[C@H]3CC[C@@H]4[C@@]5(C)CC[C@H](OC(=O)[C@H]6C[C@@H](C(=O)O)C6(C)C)C(C)(C)[C@@H]5CC[C@@]4(C)[C@]3(C)CC[C@@]2(CC(=O)NCC2(NC(=O)c3ccc(Cl)cc3)CCC2)CC1=O,92HT599,MT-2,,p24 / ELISA,<1 µM
O=C(NCCc1ccccc1)Nc1nc2c(Cl)cccc2s1,,MT-4,,RT activity,>10 µg/mL
CCOC(=O)c1cccn1S(=O)(=O)c1cc(Cl)ccc1NC(=O)CC,IIIB,MT-4,,cytopathic effect / XTT,1 µM

A second listing of 5 rows from above:

compound,strain,cell line,changes,method,value
CCC(=O)c1ccc(F)c([C@H]2C[C@H]2NC(=O)Nc2ccc(Br)cn2)c1O,IIIB,MT-4,RT-Y181C,cytopathic effect / XTT,0.1 µM
CC1([C@@H]2CC[C@]3(NCCN4CCOCC4)CC[C@]4(C)[C@H](CC[C@@H]5[C@@]6(C)CC[C@H](OC(=O)[C@H]7C[C@@H](C(=O)O)C7(C)C)C(C)(C)[C@@H]6CC[C@]54C)[C@@H]23)CC1,92HT599,MT-2,,p24 / ELISA,≤0.01 µM
CCCc1c(Cc2ccccc2)n(COC/C=C/c2ccccc2)c(=O)[nH]c1=O,IIIB,MT-4,,cytopathic effect / MTT,0.01 µM
O=C(NCCc1ccccc1)Nc1nc2c(Cl)cccc2s1,,MT-4,,RT activity,>10 µg/mL
CC1([C@@H]2CC[C@]3(NCCN4CCC(F)(F)CC4)CC[C@]4(C)[C@H](CC[C@@H]5[C@@]6(C)CC[C@H](OC(=O)[C@H]7C[C@@H](C(=O)O)C7(C)C)C(C)(C)[C@@H]6CC[C@]54C)[C@@H]23)CC1,92HT599,MT-2,,p24 / ELISA,>0.01 µM